In ChEMBL document CHEMBL3124763, “Optimization of furin inhibitors to protect against the activation of influenza hemagglutinin H5 and Shiga toxin” (J Med Chem, 2014) one finds Stability and t1/2 data, which are given here for one compound.

A short description of data set [1]: Drug degradation in human DU145 cell culture medium assessed as deltaKRT formation at 20 ug after 6 hrs by MALDI-TOF analysis. The following applies: du-145, 6 h.
The nature of data set [2]: Drug degradation in human DU145 cell culture medium assessed as deltaKKRT formation at 20 ug after 6 hrs by MALDI-TOF analysis. The following applies: du-145, 6 h.
A short description of data set [3]: Half life in cell culture medium by HPLC analysis in presence of FBS. The following applies: cattle.
The nature of data set [4]: Drug degradation in human DU145 cell culture medium assessed as deltaRT formation at 20 ug after 6 hrs by MALDI-TOF analysis. The following applies: du-145, 6 h.
Data set [5] in a line: Drug degradation in human DU145 cell culture medium assessed as Ac-RARRKKR formation at 20 ug after 6 hrs by MALDI-TOF analysis. The following applies: du-145, 6 h.

Consider `CC(=O)N[C@@H](CCCNC(=N)N)C(=O)N[C@@H](C)C(=O)N[C@@H](CCCNC(=N)N)C(=O)N[C@@H](CCCNC(=N)N)C(=O)N[C@@H](CCCNC(=N)N)C(=O)N[C@@H](CCCCN)C(=O)N[C@@H](CCCCN)C(=O)N[C@@H](CCCNC(=N)N)C(=O)N[C@H](C(N)=O)[C@@H](C)O`, for which the Stability entry in data set [1], in data set [2], in data set [4] and in data set [5] was “Unstable” in each case. Moreover, the t1/2 in data set [3] was determined as 4 h.
